# Sequence variants of PSTVd loop 6 after infection

Reference: Wu et al. 2024, doi:10.1371/journal.ppat.1012142.

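Three N. benthamiana plants were inoculated with the whole mutant pool. Samples came from the inoculated region at 5 days, the leaf margin at 10 and upper systemic leaves at 12.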

Region: loop 6 of PSTVd (intermediate strain), upper and lower strand joined, each 5' to 3', the first 5 letters being the upper strand, closing pairs included. Wild type: UGACCGCGAG. Varied positions (N): UNNNCGNNNG.

Numbers give reads per thousand; 0 = not seen among the reads, higher = more abundant.
Each value is the mean of three plants.
"Pool" is the share in the plasmid pool used as inoculum, on the same scale.
The inoculated region was read from the minus strand, the other sites from the plus strand.
IR is the inoculated region, LM the leaf margin, Sys the systemic leaves.
Wild type was 20.7 per thousand in the pool and the most common sequence in every sample (inoculated region 195, 198, 203; leaf margin 629, 591, 734; systemic leaves 942, 870, 868).

* UCAACGACAG (pool 0.248) = IR 0.0715; LM 0; Sys 0
* UUUCCGUGCG (pool 0.157) = IR 0.131; LM 0.00773; Sys 0
* UGGUCGGAAG (pool 0.118) = IR 0.106; LM 0; Sys 0
* UACUCGUCUG (pool 0.275) = IR 0.0540; LM 0; Sys 0
* UUGCCGCUAG (pool 0.157) = IR 0.108; LM 0.00773; Sys 0
* UCCACGCUAG (pool 0.183) = IR 0.0889; LM 0.00773; Sys 0
* UGCGCGCCGG (pool 0.170) = IR 0.0655; LM 0; Sys 0
* UUUUCGGAAG (pool 0.0784) = IR 0.0591; LM 0; Sys 0
* UAUCCGACCG (pool 0.196) = IR 0.0357; LM 0; Sys 0
* UUGCCGGGAG (pool 0.261) = IR 0.161; LM 0; Sys 0
* UAGACGUUUG (pool 0.405) = IR 0.0719; LM 0; Sys 0
* UUUCCGACUG (pool 0.288) = IR 0.131; LM 0.00773; Sys 0
* UGCUCGGUUG (pool 0.353) = IR 0.101; LM 0; Sys 0
* UAUACGGGGG (pool 0.222) = IR 0.0943; LM 0; Sys 0
* UGGUCGUCCG (pool 0.157) = IR 0.0589; LM 0; Sys 0
* UAGCCGCCUG (pool 0.366) = IR 0.258; LM 0.756; Sys 0
* UGAGCGCCGG (pool 0.248) = IR 0.0594; LM 0.0169; Sys 0
* UCUCCGAGGG (pool 0.131) = IR 0.0712; LM 0.00920; Sys 0.00684
* UUUGCGUAGG (pool 0.170) = IR 0.0829; LM 0; Sys 0
* UAACCGACAG (pool 0.288) = IR 0.619; LM 0.0767; Sys 0.0532
* UAAGCGCCUG (pool 0.288) = IR 0.0773; LM 0.0155; Sys 0
* UUCACGGUAG (pool 0.275) = IR 0.576; LM 0.0606; Sys 0
* UGCGCGCUAG (pool 0.105) = IR 0.113; LM 0.0155; Sys 0
* UGGGCGUUUG (pool 0.261) = IR 0.0896; LM 0.00773; Sys 0

The last 2 entries again:

- UGCGCGCUAG (pool 0.105) = IR 0.113; LM 0.0155; Sys 0
- UGGGCGUUUG (pool 0.261) = IR 0.0896; LM 0.00773; Sys 0

With 36,220-57,551 reads a sample, very low values are single reads.
Sequences that differ at fixed positions probably stem from PCR or sequencing errors, and defective variants can be carried along by functional ones.